Compound potency records, mixed from different reports. Data source: NIAID ChemDB in PubChem.

Shared fields: whole-cell or culture tests; species: Rhinovirus; read-out: EC50

An empty or dashed field is not shown. ECn: concentration that inhibits the pathogen or its effect by n%. Neighbouring rows are from separate reports. a–b is a range or a potency band.

| compound | cells | method | strain | value |
|---|---|---|---|---|
| Nc1ncnc2c1ncn2[C@@H]1C[C@@H](O)[C@H](CO)O1 | KB | - | TYPE 5 | >100 µM |
| CO/N=C/c1ccc(OCCC2CCN(c3ccc(Cl)nn3)CC2)c(C)c1 | KB | cytopathic effect / visual reading | TYPE 1A | <0.003 µg/mL |
| CCO/N=C/c1ccc(OCCC2CCN(c3ccc(C)nn3)CC2)cc1 | KB | neutral red | K6579 (ICAM-1 receptor group 100) | 0.014 µM |
| c1ccc2c(c1)CCc1ccccc1C2 | HELA-H1 | cytopathic effect | TYPE 16 | >200 µM |
| Cc1ccc(C)c(CN2CCN(c3nc(C(=O)O)cs3)CC2)c1 | HeLa | cytopathic effect | TYPE 9 | >1 µg/mL |
| C#CC[C@H](CC(=O)c1ccc(-c2ccccc2C)[nH]1)C(=O)N[C@H](/C=C/C(=O)OCC)C[C@@H]1CCNC1=O | H1-HELA | XTT | Serotype 14 | 0.124 µM |
| C#CC[C@@H](C(=O)N[C@H](/C=C/C(=O)OCC)C[C@@H]1CCNC1=O)n1cccc(NC(=O)c2cc(C)on2)c1=O | H1-HELA | cytopathic effect / XTT | Serotype 12 | 0.107 µM |
| CCOc1cc(O)c(C(=O)NCc2ccc(NC)cc2)c(OC)c1 | HeLa | cytopathic effect | TYPE 9 | 0.0037 µg/mL |
| CC(C)S(=O)(=O)n1c(N)nc2ccc(/C(=N/O)c3ccccc3)cc21 | HeLa | plaque count | Serotype 65 | <0.01 µg/mL |
| Nc1ccn([C@@H]2C[C@H](CO)[C@@H](O)[C@H]2O)c(=O)n1 | WI-38 | cytopathic effect | TYPE 1A | >100 µg/mL |
| CCOc1cc(O)c(C(=O)/C=C/c2ccc(OC)cc2)c(OC)c1 | HeLa | cytopathic effect | TYPE 9 | 0.063 µg/mL |
| OCCS | HeLa | - | - | <400 µM |
| COc1cc(O)c(CC=C(C)C)c(O)c1C(=O)/C=C/c1ccc(O)cc1 | VERO | cytopathic effect | TYPE 14 | >2.2 µg/mL |
| COc1ccc(CNC(=O)c2c(O)cc(OCC=C(C)C)cc2OC)cc1 | HeLa | cytopathic effect | TYPE 9 | 0.063 µg/mL |
| O=C(O)c1cc2oc3ccccc3c2cc1O | HELA-H1 | cytopathic effect | TYPE 14 | 25 µM |
| Nc1ccn([C@@H]2C[C@@H](O)[C@H](CO)O2)c(=O)n1 | KB | - | TYPE 5 | >100 µM |
| CCO/N=C/c1ccc(OCCC2CCN(c3ccc(C)nn3)CC2)cc1 | MRC-5 | cytopathic effect / visual reading | TYPE 14 | 0.0009–0.0018 µg/mL |
| CCOc1cc(O)c(C(=O)NCc2ccc(OC)cc2)c(OC)c1 | HeLa | cytopathic effect | TYPE 2 | 0.002 µg/mL |
| S=C(S)N1CCCC1 | HeLa | - | TYPE 8 | >31 µM |
| CCOC(=O)/C=C/[C@H](C[C@@H]1CCNC1=O)NC(=O)[C@@H](CC(=O)[C@@H](NC(=O)c1cc(C)on1)C(C)C)Cc1ccc(F)cc1 | HeLa | - | - | 0.013 µM |

A second listing of 2 rows from above:

compound,cells,method,strain,value
COc1ccc(CNC(=O)c2c(O)cc(OCC=C(C)C)cc2OC)cc1,HeLa,cytopathic effect,TYPE 9,0.063 µg/mL
C#CC[C@H](CC(=O)c1ccc(-c2ccccc2C)[nH]1)C(=O)N[C@H](/C=C/C(=O)OCC)C[C@@H]1CCNC1=O,H1-HELA,XTT,Serotype 14,0.124 µM